A mixed list of measured activities; the numbers were collected in NIAID ChemDB.

Common to all: growth or infection tests; agent: HIV-1

An empty or dashed field is not shown. ECn: concentration that inhibits the pathogen or its effect by n%. Neighbouring rows are from separate reports.

compound	cell line	endpoint	changes	method	strain	value
COC(=O)N[C@H](C(=O)N[C@@H](Cc1ccccc1)[C@@H](O)CN(Cc1ccc(-c2ccccn2)cc1)NC(=O)[C@@H](NC(=O)OC)C(C)(C)C)C(C)(C)C	HeLa	EC50	PR-L10I G48V L90M	β-galactosidase	Site-directed PR mutant 03	0.00366 µM
COC(=O)c1ccc(CN2C(=O)N(Cc3ccc(C(=O)OC)cc3)[C@H](Cc3ccccc3)[C@H](O)[C@H]2CCc2ccccc2)cc1	MT-2	EC90			RF	>5 µM
Cn1c(=O)cc(Oc2nc(Nc3ccc(C#N)cc3)nc(Nc3ccccn3)n2)c2ccccc21		EC50		MTT	IIIB	>74.1 µg/mL
Nc1ncnc2c1ncn2[C@H]1CC[C@@H](CO)O1	C8166	EC50		RT activity	HXBc2	<2 µM
Cc1nc2ccccc2c(-c2ccc3c(c2Cl)NCCO3)c1[C@H](OC(C)(C)C)C(=O)O		EC50		luciferase		8.4 µM
Cc1cn([C@H]2C[C@H](N=[N+]=[N-])[C@@H](CO)O2)c(=O)[nH]c1=O	PBMC	EC50		RT activity		0.002 µM
CC(C)CC(SCc1ccccc1)c1c(O)cc(-c2ccccc2)oc1=O	H9	EC50			IIIB	28 µM
Cn1c(=O)cc(Oc2nc(Nc3ccc(C#N)cc3)nc(Nc3nc4ccc(Cl)cc4s3)n2)c2ccccc21		EC50		MTT	IIIB	>2.19 µg/mL
CC(=O)Oc1ccccc1C(=O)O	MT-4	EC50		XTT / p24	IIIB	>1000 µM
CC(C)=CCN1c2cc(Cl)cc3[nH]c(=S)n(c23)C[C@@H]1C	MT-4	EC50	RT-M41L T215Y L100I			<0.2 µM
Cn1c(=O)cc(Oc2nc(Nc3ccc(C#N)cc3)nc(Sc3nc4ccccc4s3)n2)c2ccccc21		EC50		MTT	IIIB	>72.78 µg/mL
Cc1cn([C@H]2C[C@H](N=[N+]=[N-])[C@@H](CO)O2)c(=O)[nH]c1=O	MT-4	EC50		p24	IIIB	0.0097 µM
Nc1ncnc2c1ncn2[C@H]1CC[C@@H](CO)O1	CEM	EC50		p24	LAV	1 µM
Cc1c(O)cccc1C(=O)N[C@@H](CSc1ccccc1)[C@H](O)CN1C[C@H]2CCCC[C@H]2C[C@H]1C(=O)NC(C)(C)C	MT-2	EC50			NL4-3	0.015 µM
CCOP(=O)(OCC)C(F)(F)C[C@@]1(F)CO[C@@H](n2cc(C)c(=O)[nH]c2=O)C1	PBMC	EC50		RT activity		90 µM
Cc1cn([C@H]2C[C@H](N=[N+]=[N-])[C@@H](CO)O2)c(=O)[nH]c1=O	MT-4	EC50		cytopathic effect / MTT	IIIB	0.0015 µM
Cc1cn([C@H]2C[C@H](N=[N+]=[N-])[C@@H](CO)O2)c(=O)[nH]c1=O	PBMC	EC50		p24	KK-1	<0.015 µg/mL
C1CNCCNCCCNCCNC1.O=S(=O)([O-])[O-].[O]=[V+2]	MT-4	EC50		MTT	IIIB	>340 µM
Cc1ccc(-c2ccc3c(c2)C=C(C(=O)Nc2ccc(C[N+](C)(C)C4CCOCC4)cc2)CCC3)cc1	PBMC	EC50		p24	KK	0.0016 µM
Cc1cc(Cl)nc(C)c1C(=O)NCC[C@@H](C)N1CCC(N(Cc2ccsc2)C(=O)Nc2ccc(C(O)O)cc2)CC1	PBMC	EC50		p24 / ELISA	BaL	0.0069 µM
Nc1nc(Br)nc2c1ncn2[C@H]1CC[C@@H](CO)O1	MT-2	EC50		syncytia	LAV	10 µM
COC(=O)C(C)NP(=O)(OCC12CO[C@@H]([C@H](n3cc(C)c(=O)[nH]c3=O)O1)[C@@H]2N=[N+]=[N-])Oc1ccccc1	MT-4	EC50		antigen	IIIB	>300 µM
Nc1nc2c(ncn2[C@H]2OC[C@@](F)(C=CP(=O)(O)O)[C@H]2F)c(=O)[nH]1	PBMC	EC90		MTT	LAI	95 µM
O=c1[nH]cnc2c1ncn2[C@H]1CC[C@@H](CO)O1	ATH8	EC50		thymidine uptake		<5 µM
OCCc1ccc(O)c(O)c1	TZM-bl	EC50		luciferase	NL4-3	35.4 µM
Cn1c(=O)cc(Oc2nc(Nc3ccc(C#N)cc3)nc(Nc3nc4ccc(F)cc4s3)n2)c2ccccc21		EC50		MTT	IIIB	>2.26 µg/mL
Nc1ncnc2c1ncn2[C@H]1OC[C@@](F)(C=CP(=O)(O)O)[C@H]1F	PBMC	EC50		MTT	LAI	31 µM
CC(C)(C)NC(=O)c1ccccc1SC[C@H](O)[C@H](Cc1ccccc1)NC(=O)[C@H](CC(N)=O)NC(=O)c1ccc2ccccc2n1	CEM	EC50				4.99 µg/mL
Cc1cn([C@@H]2O[C@]3(CO)CO[C@H]2C3)c(=O)[nH]c1=O	MT-4	EC50		antigen	IIIB	>300 µM
Cc1cn([C@H]2C[C@H](F)[C@@H](CO)O2)c(=O)[nH]c1=O	PBMC	EC50	RT-M41L M43E E44D/A D67N V118I M184V L210W T215Y K219N	antigen	RS NRTI-MDR (RT M41L M43E E44A D67N V118I M184V L210W T215Y K219N)	0.0083 µM
O=C(O)C(=O)CC(=O)c1cccn1Cc1ccc(-c2ccccc2)cc1		EC50				>50 µM
CC(C)CC(SC1CCCC1)c1c(O)cc(-c2ccccc2)oc1=O	H9	EC50			IIIB	21 µM
Nc1ccn([C@H]2C[C@@](F)(CC(F)(F)P(=O)(O)O)CO2)c(=O)n1	PBMC	EC50		RT activity		>100 µM
CC(C)(C)NC(=O)[C@@H]1CN(Cc2ccc(Cl)c(Cl)c2)CCN1C[C@@H](O)C[C@@H](Cc1ccccc1)C(=O)N[C@H]1c2ccccc2C[C@H]1O	MT-4	EC95		p24	IIIB	0.2 µM
Cc1cn([C@H]2C[C@H](N=[N+]=[N-])[C@@H](CO)O2)c(=O)[nH]c1=O	PBMC	EC50		RT activity	HXB2 Subtype B X4	0.0025 µM
O=C1C(=O)N(Cc2ccccc2)C(Sc2ccccc2)C(O)C(Sc2ccccc2)N1Cc1ccccc1	MT-4	EC50				0.5 µM
Nc1nc2c(ncn2[C@H]2C[C@@](F)(CC(F)(F)P(=O)(O)O)CO2)c(=O)[nH]1	PBMC	EC50		RT activity		55.7 µM
CC(C)[C@H](NC(=O)N(C)Cc1ccccn1)C(=O)N[C@@H](Cc1ccccc1)[C@H](O)[C@H](O)[C@H](Cc1ccccc1)NC(=O)[C@@H](NC(=O)N(C)Cc1ccccn1)C(C)C	H9	EC50		p24	LAI	0.1 µM
COc1cc2c(OC3OCC(O)(CO)C3OC3OCC(O)C(O)C3O)c3c(c(-c4cc5c(cc4O)OCO5)c2cc1OC)C(=O)OC3	A549	EC50		luciferase	NL4-3	48.6 µM
S=C(NCc1ccco1)Nc1nccs1	PBMC	EC50		p24	IIIB	<0.001 µM
Cc1cn([C@H]2C[C@H](N=[N+]=[N-])[C@@H](CO)O2)c(=O)[nH]c1=O	CEM	EC50		cytopathic effect / XTT	IIIB	0.014 µg/mL
CC(C)OP(=O)(COCC1(Cn2cnc3c(N)ncnc32)CC=CC1)OC(C)C	MT-4	EC50				>100 µg/mL
Nc1nc(N)c2ncn(CCOCP(=O)(O)O)c2n1	MT-4	EC50		cytopathic effect	IIIB	0.3 µg/mL
Cc1cn(C2O[C@@]3(CO)COC2C3)c(=O)[nH]c1=O	MT-4	EC50		antigen	IIIB	>300 µM
Cc1ccnc(C)c1C(=O)N1CCC(C)(N2CCN([C@@H](C)c3ccc(C(F)(F)F)cc3)[C@@H](C)C2)CC1	PBMC	EC50		p24 / ELISA / antigen	BAL R5	0.005 µM
Cn1c(=O)cc(Oc2nc(Nc3ccc(C#N)cc3)nc(Nc3nc4ccc(Br)cc4s3)n2)c2ccccc21		EC50		MTT	IIIB	>14.5 µg/mL
O=c1oc(-c2ccccc2)cc(O)c1C(SCc1ccccc1)c1ccccc1	H9	EC50			IIIB	16 µM
CC(Cc1ccc(O)c(O)c1)C(C)Cc1ccc(O)c(O)c1	MT-4	EC50		XTT / p24	IIIB	~10 µM
Nc1ccn([C@H]2CC[C@@H](CO)O2)c(=O)n1	MT-4	EC50		MTT	IIIB	0.37 µg/mL
Cc1csc(NC(=S)N[C@H](C)c2ccccc2)n1	PBMC	EC50		p24	RT-Y181C A17 NNRTI-resistant	0.16 µM

3 of the rows above, restated:

| compound | cell line | endpoint | changes | method | strain | value |
|---|---|---|---|---|---|---|
| Nc1nc2c(ncn2[C@H]2OC[C@@](F)(C=CP(=O)(O)O)[C@H]2F)c(=O)[nH]1 | PBMC | EC90 |  | MTT | LAI | 95 µM |
| Cc1cn(C2O[C@@]3(CO)COC2C3)c(=O)[nH]c1=O | MT-4 | EC50 |  | antigen | IIIB | >300 µM |
| Cc1cn([C@H]2C[C@H](N=[N+]=[N-])[C@@H](CO)O2)c(=O)[nH]c1=O | MT-4 | EC50 |  | p24 | IIIB | 0.0097 µM |